This assay has as its target MERS-CoV S2 (40070-V08) (MERS-CoV) (UniProt K9N5Q8). Description: SPR.

In the case of S2P6, the Kd amounted to 8.5 nM and the koff was determined as 0.0052 s⁻¹.

The values above are taken from article PMC9302814.
